Pooled drug test results. Numbers come from NIAID ChemDB, via PubChem.

Common to all: whole-cell or culture tests; agent: Hepatitis C virus; method: replicon; measure: EC90

ECn: concentration that inhibits the pathogen or its effect by n%.

structure,cell line,strain or isolate,setting,value
C#Cc1cn([C@@H]2O[C@H](CO)[C@@H](O)[C@@]2(C)F)c2ncnc(N)c12,CEM,,,>10 µM
CC(C)[C@H](NC(=O)N[C@H](C(=O)N1C[C@H]2C([C@H]1C(=O)NC(CC1CC1)C(=O)C(N)=O)C2(C)C)C(C)(C)C)C(=O)c1cccs1,,1,,0.1 µM
CCOC(=O)[C@H](C)NP(=O)(OC[C@H]1O[C@@H](n2cc(I)c3c(N)nc(N)nc32)[C@](C)(F)[C@@H]1O)Oc1ccccc1,CEM,,,>10 µM
C[C@@H](NC(=O)C(=O)C(CC1CC1)NC(=O)[C@@H]1C2[C@H](CN1C(=O)[C@@H](NC(=O)N[C@H](C(=O)OC(C)(C)C)C(C)(C)C)C(C)(C)C)C2(C)C)c1ccccc1,,,,0.3 µM
Nc1nc(Cl)nc2c1ncn2[C@H]1O[C@H](CO)[C@@H](F)[C@@H]1F,Huh7,,,>10 µM
CC(C)CC(NC(=O)NC(C(=O)N1C[C@H]2C([C@H]1C(=O)NC(CC1CC1)C(=O)C(N)=O)C2(C)C)C(C)(C)C)C(=O)O,,,,20 µM
C#Cc1cn([C@H]2O[C@H](CO)[C@@H](O)[C@@]2(C)F)c2ncnc(N)c12,CEM,,,>10 µM
CC(C)[C@@](C)(NC(=O)NC(C(=O)N1C[C@H]2C([C@H]1C(=O)NC(CC1CC1)C(=O)C(N)=O)C2(C)C)C(C)(C)C)C(=O)O,,,,18 µM
C[C@@]1(F)[C@H](O)[C@@H](CO)O[C@H]1n1cc(Cl)c2c(N)ncnc21,CEM,,,>10 µM
Clc1ncnc2c1ncn2C1C[C@H]2C[C@@H]1[C@@H]1CSC[C@H]21,Huh,1b,,>20 µM
COc1c(C(C)(C)C)cc(-c2ccc[nH]c2=O)c2ncc(-c3ccc(NS(C)(=O)=O)cc3)cc12,Huh7,GT 1a-H77,40% human serum,0.123 µM
CC(C)OC(=O)N[C@H](C(=O)N1C[C@H]2C(C1C(=O)NC(CC1CC1)C(=O)C(=O)NCC(=O)N[C@H](C(=O)N(C)C)c1ccccc1)C2(C)C)C1CCCCC1,,,,0.2 µM
COC(=O)N[C@H](C(=O)N1CCC[C@H]1c1ncc(-c2ccc(-c3ccc(-c4cnc([C@@H]5CCCN5C(=O)[C@@H](NC(=O)OC)C(C)C)[nH]4)s3)cc2)[nH]1)C(C)C,Huh7,1b replicon,,>0.01 µM
Clc1ncnc2c1ncn2C1C[C@H]2C[C@@H]1[C@H]1CSC[C@@H]21,Huh,1b,,>17 µM
Nc1ccn([C@@H]2O[C@H](CO)[C@@H](O)[C@H]2F)c(=O)n1,Huh7,,,5.6 µM
Nc1nc(Cl)nc2c1ncn2[C@@H]1O[C@H](CO)[C@@H](F)[C@@H]1F,Huh7,,,>10 µM
CCc1cn([C@@H]2O[C@H](CO)[C@@H](O)[C@@]2(C)F)c2ncnc(N)c12,CEM,,,>10 µM
Nc1nc(=O)n([C@@H]2O[C@H](CO)[C@@H](O)[C@H]2F)cc1F,Huh7,,,9.4 µM
C=Cc1cn([C@H]2O[C@H](CO)[C@@H](O)[C@@]2(C)F)c2ncnc(N)c12,CEM,,,>10 µM
O=c1[nH]c(=O)n2c3c1nnn3CC1OC2[C@H](O)[C@@H]1O,Huh7,,,13 µM
CC(C)CC(NC(=O)N[C@H](C(=O)N1C[C@H]2C([C@H]1C(=O)NC(CC1CC1)C(=O)C(=O)NCC(=O)N[C@H](C(=O)N(C)C)c1ccccc1)C2(C)C)C(C)(C)C)C(=O)OCc1ccccc1,,,,3.1 µM
C[C@@]1(F)[C@H](O)[C@@H](CO)O[C@H]1n1ccc2c(N)nc(N)nc21,CEM,,,>10 µM

Lines come from different laboratories, so protocols vary. An empty or dashed field is not shown.